Measured values from several laboratories, pooled; numbers as filed in NIAID ChemDB.

All rows: growth or infection tests; species: HIV-1; cells: MT-2; read-out: EC50

a–b is a range or a potency band.

structure	strain	mutations	read by	result
CC1([C@@H]2CC[C@]3(NC[C@H](C(=O)O)N4CCS(=O)(=O)CC4)CC[C@]4(C)[C@H](CC[C@@H]5[C@@]6(C)CC[C@H](OC(=O)[C@H]7C[C@@H](C(=O)O)C7(C)C)C(C)(C)[C@@H]6CC[C@]54C)[C@@H]23)CC1	92HT599		p24 / ELISA	0.01001–0.02 µM
CC(C)C1=C2[C@H]3CC[C@@H]4[C@@]5(C)CC[C@H](OC(=O)[C@H]6C[C@@H](C(=O)O)C6(C)C)C(C)(C)[C@@H]5CC[C@@]4(C)[C@]3(C)CC[C@@]2(CCNCC(C)(CCN)NC(=O)c2ccc(Cl)cc2)CC1=O	92HT599		p24 / ELISA	<1 µM
CCC(F)(F)COc1ccc(-c2cnc(C)c([C@H](OC(C)(C)C)C(=O)O)c2N2CCC(C)(CC)CC2)nc1	NL4-3		luminescence	4.6 µM
C=C(C)[C@@H]1CC[C@]2(NCCN3CCN(S(=O)(=O)N(C)C)CC3)CC[C@]3(C)[C@H](CC[C@@H]4[C@@]5(C)CC[C@H](OC(=O)[C@H]6C[C@@H](C(=O)O)C6(C)C)C(C)(C)[C@@H]5CC[C@]43C)[C@@H]12	92HT599		p24 / ELISA	≤0.01 µM
CC1([C@@H]2CC[C@]3(NC[C@@H](CO)N4CCS(=O)(=O)CC4)CC[C@]4(C)[C@H](CC[C@@H]5[C@@]6(C)CC[C@H](OC(=O)[C@H]7C[C@@H](C(=O)O)C7(C)C)C(C)(C)[C@@H]6CC[C@]54C)[C@@H]23)CC1	92HT599		p24 / ELISA	<0.01 µM
Cc1ncc(-c2ccc(OCCc3ccc(F)cc3)cn2)c(N2CCC3(CC2)CC3(F)F)c1[C@H](OC(C)(C)C)C(=O)O	NL4-3		luminescence	1.6 µM
CCCCCCCCCCCCCCCCCCOCCOP(=O)(O)CO[C@H](CO)Cn1cnc2c(=O)[nH]c(N)nc21	LAI		p24 / ELISA	0.009 µM
C=C(C)[C@@H]1CC[C@]2(NCCN3CCN(C(=O)N(C)C)CC3)CC[C@]3(C)[C@H](CC[C@@H]4[C@@]5(C)CC[C@H](OC(=O)[C@H]6C[C@@H](C(=O)O)C6(C)C)C(C)(C)[C@@H]5CC[C@]43C)[C@@H]12	92HT599		p24 / ELISA	≤0.01 µM
CC(C)C1=C2[C@H]3CC[C@@H]4[C@@]5(C)CC[C@H](OC(=O)[C@H]6C[C@@H](C(=O)O)C6(C)C)C(C)(C)[C@@H]5CC[C@@]4(C)[C@]3(C)CC[C@@]2(CCNCc2ccc(Cl)cc2O[C@@H]2CCOC2)CC1=O	92HT599		p24 / ELISA	<1 µM
C=C(C)[C@@H]1CC[C@]2(NC[C@H]([C@@H](C)OC(=O)COCCOC)N3CCS(=O)(=O)CC3)CC[C@]3(C)[C@H](CC[C@@H]4[C@@]5(C)CC[C@H](OC(=O)[C@H]6C[C@@H](C(=O)O)C6(C)C)C(C)(C)[C@@H]5CC[C@]43C)[C@@H]12	92HT599		p24 / ELISA	<0.01 µM
CC(C)C1=C2[C@H]3CC[C@@H]4[C@@]5(C)CC[C@H](OC(=O)[C@H]6C[C@@H](C(=O)O)C6(C)C)C(C)(C)[C@@H]5CC[C@@]4(C)[C@]3(C)CC[C@@]2([C@@H](O)CNCc2ncc[nH]2)CC1=O	92HT599		p24 / ELISA	<1 µM
C[C@H](Cn1cnc2c(N)ncnc21)OCP(=O)(O)O	Clinical isolate	M41L/D67N/K70R/M184V/L210W/T215Y/K219E	recombinant virus assay	0.0092 µM
CCC1(C)CCN(c2c(-c3ccc(OCCc4cn(C)nc4C)cn3)cnc(C)c2[C@H](OC(C)(C)C)C(=O)O)CC1	NL4-3		luminescence	4.4 µM
Nc1ncnc2c1ncn2[C@H]1C=C[C@@H](OCP(=O)(O)O)O1		RT-M184V	cytopathic effect	1.3 µM
CCCCCCCCCCCCCCCCCCOCCOP(=O)(O)CO[C@H](CO)Cn1cnc2c(N)ncnc21	LAI		p24 / ELISA	0.0001 µM
COc1ccc(N(C)C(=O)[C@H](Cc2cc(F)cc(F)c2)NC(=O)Cn2c(=O)n(CC(=O)N[C@@H](Cc3cc(F)cc(F)c3)C(=O)N(C)c3ccc(OC)cc3)c3c(Cl)cccc32)cc1	NL4-3		luciferase	0.03 µM
CC1([C@@H]2CC[C@]3(NCCN4CCS(=O)(=O)CC4)CC[C@]4(C)[C@H](CC[C@@H]5[C@@]6(C)CC[C@H](OC(=O)[C@H]7C[C@@H](C(=O)O)C7(C)C)C(C)(C)[C@@H]6CC[C@]54C)[C@@H]23)CC1	92HT599		p24 / ELISA	≤0.01 µM
Cc1ncc(-c2ccc(OCC(C)C)cn2)c(N2CCC3(CCCC3)CC2)c1[C@H](OC(C)(C)C)C(=O)O	NL4-3		luminescence	6.7 µM
C#CCN(C(=O)[C@H](Cc1ccccc1)NS(=O)(=O)NC(=O)N[C@@H](Cc1ccccc1)C(=O)N(CCC=C)c1ccc(OC)nc1)c1ccc(OC)nc1	NL4-3		luciferase	1.5 µM
COCCOCC(=O)O[C@H](C)[C@@H](CN[C@]12CC[C@@H](C3(C)CC3)[C@@H]1[C@H]1CC[C@@H]3[C@@]4(C)CC[C@H](OC(=O)[C@H]5C[C@@H](C(=O)O)C5(C)C)C(C)(C)[C@@H]4CC[C@@]3(C)[C@]1(C)CC2)N1CCS(=O)(=O)CC1	92HT599		p24 / ELISA	<0.01 µM
CC(C)C1=C2[C@H]3CC[C@@H]4[C@@]5(C)CC[C@H](OC(=O)[C@H]6C[C@@H](C(=O)O)C6(C)C)C(C)(C)[C@@H]5CC[C@@]4(C)[C@]3(C)CC[C@@]2([C@@H](O)CNCC(F)(CCCN)NC(=O)c2ccc(Cl)cc2)CC1=O	92HT599		p24 / ELISA	<1 µM
CCC1(C)CCN(c2c(-c3ccc(OCCCC(F)(F)F)cn3)cnc(C)c2[C@H](OC(C)(C)C)C(=O)O)CC1	NL4-3		luminescence	2.8 µM
C=C(C)[C@@H]1CC[C@]2(NCCN3CCOCC3)CC[C@]3(C)[C@H](CC[C@@H]4[C@@]5(C)CC[C@H](OC(=O)[C@H]6C[C@@H](C(=O)O)C6(C)C)C(C)(C)[C@@H]5CC[C@]43C)[C@@H]12	92HT599		p24 / ELISA	≤0.01 µM
CC(C)[C@H](CN[C@]12CC[C@@H](C3(C)CC3)[C@@H]1[C@H]1CC[C@@H]3[C@@]4(C)CC[C@H](OC(=O)[C@H]5C[C@@H](C(=O)O)C5(C)C)C(C)(C)[C@@H]4CC[C@@]3(C)[C@]1(C)CC2)N1CCS(=O)(=O)CC1	92HT599		p24 / ELISA	>0.02 µM
C=CCN(C(=O)[C@H](Cc1cc(F)cc(F)c1)NC(=O)c1cc(F)c(F)cc1C(=O)N[C@@H](Cc1cc(F)cc(F)c1)C(=O)N(CC=C)c1ccc(OC)cc1)c1ccc(OC)cc1	NL4-3		luciferase	7.24 µM
CC(C)S(=O)(=O)N1CCN([C@H](CN[C@]23CC[C@@H](C4(C)CC4)[C@@H]2[C@H]2CC[C@@H]4[C@@]5(C)CC[C@H](OC(=O)[C@H]6C[C@@H](C(=O)O)C6(C)C)C(C)(C)[C@@H]5CC[C@@]4(C)[C@]2(C)CC3)[C@@H](C)O)CC1	92HT599		p24 / ELISA	<0.01 µM
COc1ccc(N(C)C(=O)[C@H](Cc2ccccc2)NC(=O)c2ccc(F)c(C(=O)N[C@@H](Cc3ccccc3)C(=O)N(C)c3ccc(OC)cc3)c2)cc1	NL4-3		luciferase	0.05 µM
CCCCCCCCCCCCCCCCCCOCCOP(=O)(O)CO[C@H](CO)Cn1ccc(N)nc1=O	LAI		p24 / ELISA	0.0001 µM
CC(C)C1=C2[C@H]3CC[C@@H]4[C@@]5(C)CC[C@H](OC(=O)[C@H]6C[C@@H](C(=O)O)C6(C)C)C(C)(C)[C@@H]5CC[C@@]4(C)[C@]3(C)CC[C@@]2(CCNCC(C)(C)NC(=O)c2csc(N)n2)CC1=O	92HT599		p24 / ELISA	<1 µM
Cc1ncc(-c2ccc(OCCc3ccc(F)cc3)cn2)c(N2CCC3(CCCC3)CC2)c1[C@H](OC(C)(C)C)C(=O)O	NL4-3		luminescence	1.7 µM
C[C@H](O)[C@H](CN[C@]12CC[C@@H](C3(C)CC3)[C@@H]1[C@H]1CC[C@@H]3[C@@]4(C)CC[C@H](OC(=O)[C@H]5C[C@@H](C(=O)O)C5(C)C)C(C)(C)[C@@H]4CC[C@@]3(C)[C@]1(C)CC2)N1CCS(=O)(=O)CC1	NL4-3	V7A	p24 / ELISA	<0.05 µM
Cc1ncc(-c2ccc(OCC(C)C)cn2)c(N2CC3CCCC3C2)c1[C@H](OC(C)(C)C)C(=O)O	NL4-3		luminescence	36 µM
CC(C)C1=C2[C@H]3CC[C@@H]4[C@@]5(C)CC[C@H](OC(=O)[C@H]6C[C@@H](C(=O)O)C6(C)C)C(C)(C)[C@@H]5CC[C@@]4(C)[C@]3(C)CC[C@@]2(CCNC(=O)[C@@H](N)C(C)C)CC1=O	92HT599		p24 / ELISA	<1 µM
Nc1nc(NC2CC2)c2ncn([C@H]3C=C[C@@H](CO)C3)c2n1	Clinical isolate	M41LK67N/K70R/M184V/L210W/T215Y/K219E	recombinant virus assay	0.6072 µM
C=C(C)[C@@H]1CC[C@]2(NCCN3CCN(S(=O)(=O)C(C)C)CC3)CC[C@]3(C)[C@H](CC[C@@H]4[C@@]5(C)CC[C@H](OC(=O)[C@H]6C[C@@H](C(=O)O)C6(C)C)C(C)(C)[C@@H]5CC[C@]43C)[C@@H]12	92HT599		p24 / ELISA	≤0.01 µM
Cc1ncc(-c2ccc(OCC(C)C)cn2)c(N2CCC3(CCOC3)CC2)c1[C@H](OC(C)(C)C)C(=O)O	NL4-3		luminescence	22.3 µM
COP(=O)(c1cc(C)cc(CCC#N)c1)c1c(C(N)=O)[nH]c2ccc(Cl)c(F)c12	Clinical isolate	Y181C M184V		0.0014 µM
CC(C)C1=C2[C@H]3CC[C@@H]4[C@@]5(C)CC[C@H](OC(=O)[C@H]6C[C@@H](C(=O)O)C6(C)C)C(C)(C)[C@@H]5CC[C@@]4(C)[C@]3(C)CC[C@@]2([C@@H](O)CNC(=O)C(C)(C)NC(=O)c2cccc(Cl)c2)CC1=O	92HT599		p24 / ELISA	<1 µM
COc1ccccc1C[C@H](C[C@H](O)[C@H](Cc1ccccc1)NC(=O)OC(C)(C)C)C(=O)N[C@H](C(=O)N[C@@H](Cc1ccccc1)C(=O)N1CCOCC1)C(C)C	MN		RT activity	<0.1 µM
CC(C)[C@@H](CN[C@]12CC[C@@H](C3(C)CC3)[C@@H]1[C@H]1CC[C@@H]3[C@@]4(C)CC[C@H](OC(=O)[C@H]5C[C@@H](C(=O)O)C5(C)C)C(C)(C)[C@@H]4CC[C@@]3(C)[C@]1(C)CC2)N1CCS(=O)(=O)CC1	92HT599		p24 / ELISA	<0.01 µM
COc1ccc(C[C@H](C[C@H](O)[C@H](Cc2ccccc2)NC(=O)OC(C)(C)C)C(=O)N[C@H](C(=O)NCCN(C)C)C(C)C)cc1	MN		RT activity	<0.3 µM
COc1ccc(N(C)C(=O)[C@H](Cc2ccccc2)NC(=O)c2cc(Br)cc(C(=O)N[C@@H](Cc3ccccc3)C(=O)N(C)c3ccc(OC)cc3)c2)cc1	NL4-3		luciferase	0.21 µM
CCOCCNC(=O)[C@@H](NC(=O)[C@H](Cc1ccc(OC)c(OC)c1OC)C[C@H](O)[C@H](Cc1ccccc1)NC(=O)OC(C)(C)C)C(C)C	MN		RT activity	<0.03 µM
CC1([C@@H]2CC[C@]3(NCCN4CCOCC4)CC[C@]4(C)[C@H](CC[C@@H]5[C@@]6(C)CC[C@H](OC(=O)[C@H]7C[C@@H](C(=O)O)C7(C)C)C(C)(C)[C@@H]6CC[C@]54C)[C@@H]23)CC1	92HT599		p24 / ELISA	≤0.01 µM
N#Cc1ccc(Oc2cc(Cl)ccc2Cl)c(COCc2ccncc2)c1	IIIB		MTT	12 µM
COc1ccc(C[C@H](C[C@H](O)[C@H](Cc2ccccc2)NC(=O)OC(C)(C)C)C(=O)N[C@H](C(=O)N[C@@H](Cc2ccccc2)C(=O)N2CCOCC2)C(C)C)c(OC)c1OC	MN		RT activity	<1 µM

6 of the rows above, restated:

structure	strain	mutations	read by	result
CC(C)[C@@H](CN[C@]12CC[C@@H](C3(C)CC3)[C@@H]1[C@H]1CC[C@@H]3[C@@]4(C)CC[C@H](OC(=O)[C@H]5C[C@@H](C(=O)O)C5(C)C)C(C)(C)[C@@H]4CC[C@@]3(C)[C@]1(C)CC2)N1CCS(=O)(=O)CC1	92HT599		p24 / ELISA	<0.01 µM
CCOCCNC(=O)[C@@H](NC(=O)[C@H](Cc1ccc(OC)c(OC)c1OC)C[C@H](O)[C@H](Cc1ccccc1)NC(=O)OC(C)(C)C)C(C)C	MN		RT activity	<0.03 µM
C[C@H](Cn1cnc2c(N)ncnc21)OCP(=O)(O)O	Clinical isolate	M41L/D67N/K70R/M184V/L210W/T215Y/K219E	recombinant virus assay	0.0092 µM
Cc1ncc(-c2ccc(OCC(C)C)cn2)c(N2CCC3(CCOC3)CC2)c1[C@H](OC(C)(C)C)C(=O)O	NL4-3		luminescence	22.3 µM
CC(C)C1=C2[C@H]3CC[C@@H]4[C@@]5(C)CC[C@H](OC(=O)[C@H]6C[C@@H](C(=O)O)C6(C)C)C(C)(C)[C@@H]5CC[C@@]4(C)[C@]3(C)CC[C@@]2(CCNCC(C)(C)NC(=O)c2csc(N)n2)CC1=O	92HT599		p24 / ELISA	<1 µM
C=CCN(C(=O)[C@H](Cc1cc(F)cc(F)c1)NC(=O)c1cc(F)c(F)cc1C(=O)N[C@@H](Cc1cc(F)cc(F)c1)C(=O)N(CC=C)c1ccc(OC)cc1)c1ccc(OC)cc1	NL4-3		luciferase	7.24 µM

An empty or dashed field is not shown. ECn: concentration that inhibits the pathogen or its effect by n%. Lines come from different laboratories, so protocols vary.